The series deals with PBMC. Nature of the series: Half life in rhesus monkey PBMC assessed as ((2R,3S,4R,5R)-5-(4-aminopyrrolo[1,2-f][1,2,4]triazin-7-yl)-5-cyano-3,4-dihydroxytetrahydrofuran-2-yl)methyl tetrahydrogen triphosphate levels at 10 mg/kg, iv administered as single bolus. The following applies: in vivo. The class given is ADME, organism-based, Macaca mulatta.

Consider `CCC(CC)COC(=O)[C@H](C)N[P@](=O)(OC[C@H]1O[C@@](C#N)(c2ccc3c(N)ncnn23)[C@H](O)[C@@H]1O)Oc1ccccc1`, for which the t1/2 was found to be 14 h.
